Data as given in PubChem BioAssay AID504761 (Drosophila RNAi Screening Center, 2011)

Assay: 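Genome-wide fly cell screen for genes dengue virus requires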 (primary screen)
System: D.Mel-2 cells from Drosophila
Reagents: long dsRNA against Drosophila genes
Challenge: infection with dengue virus type 2; dose and infection time not stated
Read-out: 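Cells stained for dengue envelope protein and imaged; percent of infected cells per well on duplicate plates, ranked by infection, with stained nuclei counted for cell number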
Direction: infection score: higher = more virus-infected cells
Active means: 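Low infection ranks in the two replicates (chance level up to 0.065) followed by a retest with a 1.5-fold or larger significant decrease, p below 0.05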
Calls: active = confirmed: knock-down lowers infection; inactive = not picked or not confirmed
In all, the deposit lists about 22,000 reagents; below is an unselected part of those that have a named target and a result. Of all reagents, 116 (0.52%) are marked active. 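Calls depend on retest data that are not deposited; infection was ranked per plate without normalising between plates; the unit of the infection score is not given.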 Entries without a mark were called inactive. Further read-outs or replicates are left out here. No sequences are given here. Not stated in the record: the amount of reagent, the time to read-out.

Tsp42Eo [SID104185976] gave infection score, replicate 1 = 3.8. D [SID104190924] gave infection score, replicate 1 = 0.46. For D [SID104203913] the deposit lists infection score, replicate 1 = 0.55. Knock-down of CG18368 [SID104186523] came out at: infection score, replicate 1 = 25.4. regucalcin [SID104200158] scored infection score, replicate 1 = 14.7. For regucalcin [SID104204136], the values are infection score, replicate 1 = 12.9.

hpRNA:CR32207 [SID104189408] showed infection score, replicate 1 = 5.45. LeuRS-m [SID104188387] scored infection score, replicate 1 = 11.6. LeuRS-m [SID104207234] scored infection score, replicate 1 = 15.6. Srp19 [SID104191080] scored infection score, replicate 1 = 0.95. For Srp19 [SID104203350] the deposit lists infection score, replicate 1 = 0.53. Sid [SID104196380] scored infection score, replicate 1 = 2.24.

For Sid [SID104204862] the deposit lists infection score, replicate 1 = 21.3.
